The text below walks through data of patent US20230296621A1.

Test [1] concerns the target S sensors S25 + L25: S(aa 328-533)-25aa-SmBiT and S(aa 328-533)-25aa-LgBiT (SARS-CoV-2).
The target in test [2] is S sensors S15 + L15: S(aa 328-533)-15aa-SmBiT and S(aa 328-533)-15aa-LgBiT (SARS-CoV-2).

With CR3022 IgG (antibody), the luminescence signal in test [1] is 28; in test [2] it was 132.
